# Data taken from PMC8190750 (Cell Research, 2021).
# Amino acid sequences for entries named in this document (tags omitted).
# UniProt P0DTC4, whole entry, looked up: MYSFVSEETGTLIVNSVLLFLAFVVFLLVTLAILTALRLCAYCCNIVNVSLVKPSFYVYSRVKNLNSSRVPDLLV
# Key:
# 2-E channels = 2-E channels (Severe acute respiratory syndrome coronavirus 2, UniProt P0DTC4); type: biochemical, SARS-CoV-2; conditions: read-out: IC50 Channel inhibition
substance,measurement,setting,value
Berbamine [BE-12],IC50,2-E channels,111 µM
same,cytotoxicity (in words),Vero E6 cells,minor cytotoxicity
same,IC50,Vero E6 cells; African green monkey,29.9 µM
